What all share (experiment): pseudovirus neutralization IC50; higher = weaker neutralization
Experiment [1] has as its target SARS-CoV-2 Omicron BA.1 spike pseudovirus. The method, then: (§1)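 Single-round VSV luciferase pseudovirus mixed with antibody dilutions for 1 h and put on Huh-7 cells for about a day; IC50 from the dose curve.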
For experiment [2], the target named is SARS-CoV-2 Omicron BA.2 spike pseudovirus. As to the method: as §1
For experiment [3], the target named is SARS-CoV-2 Omicron BA.2.75 spike pseudovirus. As to the method: as §1
Experiment [4] has as its target SARS-CoV-2 Omicron BA.5 spike pseudovirus. The method, then:
as §1

The target in experiment [5] is SARS-CoV-2 Omicron BQ.1.1 spike pseudovirus. The method, then: as §1
Experiment [6] concerns the target SARS-CoV-2 Omicron XBB spike pseudovirus. As to the method:
as §1

Experiment [7] deals with SARS-CoV-2 early D614G spike pseudovirus. The method, then: as §1

Human monoclonal antibodies against the spike receptor-binding domain (heavy:light variable regions). IC50 against pseudoviruses bearing the spike of naturally observed variants; lower = stronger; >10 µg/ml means not reached at the top dose. No active / inactive call. The stated detection limit is 0.0005 µg/ml; values near or below 0.001 µg/ml lie at the floor of the assay.

B1: COV2-2068 (protein)
chain 1: EVQLVESGGGLVQPGGSLRLSCAASGFTVSSNYMSWVRQAPGKGLEWVSVIYPGGSAFYADSVKGRFTISRHNSNNTLCLQMNSLRTEDTAVYYCARSYDILTGYRDAFDIWGQGTMVTVSS
chain 2: QSVLTQPPSVSGAPGQRVTISCTGSSSNIGSGSDVHWYQQLPGTAPKLLIYGNTNRPSGVPDRFSGSKSGTSASLAITGLQAEDEADYYCQSYDSRLSGFVVFGGGTKLTVL
Regarding B1, the “pseudovirus neutralization IC50” value in experiment [1] is 0.0701 µg/mL; in experiment [2], 0.115 µg/mL; in experiment [3] it was above 10 µg/mL; in experiment [4] it was 0.0427 µg/mL; in experiment [5], above 10 µg/mL; in experiment [6], above 10 µg/mL. Besides, the “pseudovirus neutralization IC50” value in experiment [7] turned out to be 0.0217 µg/mL.

B2: BD56-1271 (protein)
chain 1: EVQLVESGGGLVQPGRSLRLSCAASGFTFEDYGMHWVRQAPGKGLEWVSGIGWNSGVIGYADSVKARFTISRDNAKNSLYLQMNRLRVEDTAFYFCAKDTDRLGFGELALDVWGQGTTVTVSS
chain 2: QSVLTQPPSVSGAPGQRVTISCTGSSSNIGAGYDVHWYQQLPGTAPKLLIHGNSNRPSGVPDRFSGSKSGTSASLAITGLQAEDEADYYCQSYDSSLSGSVVFGGGTKLTVL
Turning to B2, the “pseudovirus neutralization IC50” value in experiment [1], in experiment [2], in experiment [3], in experiment [4], in experiment [5] and in experiment [6] was above 10 µg/mL throughout. In addition, the “pseudovirus neutralization IC50” value in experiment [7] was found to be 0.151 µg/mL.

B3: BD56-1255 (protein)
chain 1: EVQLVESGGGLVQPGRSLRLSCAASGFTFDDYAMHWVRQAPGKGLEWVSGVSWNSGTIGYADSVKGRFFISRDNAKNSLYLQMIRLRAEDTALYYCAKDTRSSSTGQDEAYGMDVWGQGTTVTVSS
chain 2: QSALTQPASVSGSPGQSITFSCTGTSSDVGSYNLVSWYQQHPGKAPKLMIFEVTKRPSGISNRFSGSKSGNTASLTISGLQAEDEADYYCCSYTNNSTFEGVVFGGGTKLTVL
B3: the “pseudovirus neutralization IC50” value was 0.186 µg/mL in experiment [1]; 0.217 µg/mL in experiment [2]; 0.219 µg/mL in experiment [3]; above 10 µg/mL in experiment [4]; above 10 µg/mL in experiment [5]; 1.53 µg/mL in experiment [6]. In addition, the “pseudovirus neutralization IC50” value in experiment [7] worked out at 0.0205 µg/mL.

B4: BD56-1260 (protein)
chain 1: QVQLVQSGADVKKPGSSVKVSCKASGGTFSSHSISWVRQAPGQGPEWIGTIIPILGISNNAQRFQGRVTITADKSTSTAYMELSSLRSEDTAVYYCARSYYYDSTDLAADAFDIWGQGTMVTVSS
chain 2: QSVLTQPPSVSGAPGQRVTVSCTGTNSNIGAGYDVHWYQQLPGTAPKLLIFGNNNRPSGVPDRFSGSKSGTSASLAITGLQAEDEADYYCQSYDSSLIGPVFGGGTKLAVL
Regarding B4, the “pseudovirus neutralization IC50” value was 0.184 µg/mL in experiment [1]; 0.128 µg/mL in experiment [2]; 0.188 µg/mL in experiment [3]; above 10 µg/mL in experiment [4]; above 10 µg/mL in experiment [5]; 1.85 µg/mL in experiment [6]. The “pseudovirus neutralization IC50” value in experiment [7] amounted to 0.0866 µg/mL.

B5: BD56-1251 (protein)
chain 1: QVQLVESGGGVVQPGRSLRLSCAASGITFSGYGMHWVRQAPGKGLEWVALIWSDGGNKYYADFVKGRFTISRDNSKNTMYLQMNSLRADDTAMYFCARETPGAGYPIDYWGQGTLVTVSS
chain 2: SYVLTQPFSVPVAPGKTARITCGGNNIGSKSVHWYQQKAGQAPVLVVYDDSDRPSGILERFSGSKSGNTATLTISRVAAGDEADYYCQVWDNNSDHVVFGGGTKLTVL
Regarding B5, the “pseudovirus neutralization IC50” value in experiment [1] was 1.48 µg/mL; in experiment [2], 0.516 µg/mL; in experiment [3] it was 1.88 µg/mL; in experiment [4], above 10 µg/mL; in experiment [5], above 10 µg/mL; in experiment [6], above 10 µg/mL. Moreover, in experiment [7], the “pseudovirus neutralization IC50” value amounted to 1.25 µg/mL.

B6: BD56-1247 (protein)
chain 1: QVQLQESGPGLVKPSQTLSLTCTVSGGSVRDEVYYWSWIRQPPGKGLEWIGYIHNSGNTYYNPSLKSRVVISVDMSKNQFSLKLNSVTAADTAVYYCARVDVGGTLVSTFDYWGQGILVTVSS
chain 2: EFMLTQPHSVSESPEMTVTISCTGSSGSIASNYVQWYQQRPGSAPRTVIYENNQRPSGVPNRFSGSIDSSSNSASLTISGLKTEDEADYYCQSYDDSNVAVFGGGTQLTVL
Regarding B6, the “pseudovirus neutralization IC50” value in experiment [1] was determined as 0.00576 µg/mL; in experiment [2], 0.00337 µg/mL; in experiment [3], 0.00335 µg/mL; in experiment [4] it was 0.00226 µg/mL; in experiment [5], 0.00543 µg/mL; in experiment [6], 0.00715 µg/mL. In experiment [7], the “pseudovirus neutralization IC50” value came out at 0.0279 µg/mL.

B7: BD56-1254 (protein)
chain 1: QVQLQESGPGLVKPSETLSLTCTVSGGSIRNYYWSWIRQPAGKGLEWMGRVYISGGANYIPSLKGRVTMSLDTSKNQFSLRLRSVTAADTAVYYCATSGSGTFSDYWSFDLWGRGTLVTVSS
chain 2: NFMLTQPHSVSESPGKTVTISCTRSSGSIASNYVQWYQRRPGSAPTTVIYEDDQRPSGVPDRFSGSIDSSSNSASLTISGLKTEDEADYYCQSYDTSNVVFGGGTKLTVL
On to B7, for which the “pseudovirus neutralization IC50” value in experiment [1] is 0.0606 µg/mL; in experiment [2], 0.0221 µg/mL; in experiment [3], 0.0568 µg/mL; in experiment [4] it was 0.0271 µg/mL; in experiment [5], above 10 µg/mL; in experiment [6], above 10 µg/mL. The “pseudovirus neutralization IC50” value in experiment [7] came to 0.0331 µg/mL.

B8: BD56-1252 (protein)
chain 1: EVQLLESGGGLVQPGGALRLSCSASGFTFSSYDMTWVRQVPGKGLEWVSVISGSGGRTYYADSVKGRFTISRDNSKNMLYLQMNSLRAEDTAVYYCANIAVQLLVVVDYWSPTDYWGQGTLVTVSS
chain 2: AIQMTQSPSSLSASVGDRVTITCRASQGIRNDLGWYQQKPGKAPRLLIFAASNLQSGVPSRFSGSGSGTDFTLTISSLQPEDFATYYCLQDYNYPYTFGQGTKLEIK
Take B8: the “pseudovirus neutralization IC50” value in experiment [1] was 0.111 µg/mL; in experiment [2] it was 0.069 µg/mL; in experiment [3], 0.0576 µg/mL; in experiment [4], 0.0321 µg/mL; in experiment [5], 1.09 µg/mL; in experiment [6] it was above 10 µg/mL. For the same molecule, the “pseudovirus neutralization IC50” value in experiment [7] stood at 0.107 µg/mL.

B9: COV2-2098 (protein)
chain 1: EVQLLESGGGLIQPGGSLRLSCAASGFTFSNYAMSWVRQAPGKGLEWVSGIISTSGGATYNADSVRGRFTTSRDNSKNILYLQMNSLRGEDTAVYYCVKGLFDWFPLWGQGTMVTVSS
chain 2: DIVMTQSPATLSVSPGERAILSCRASQSVRSNLAWYQQKPGQAPRLLISGASTRATAIPARFSGSGSGTEFTLTITSLQSEDCAVYYCHQYNNWPQTFGQGTKVEIK
Take B9: the “pseudovirus neutralization IC50” value in experiment [1], in experiment [2], in experiment [3], in experiment [4], in experiment [5] and in experiment [6] was above 10 µg/mL each time. For the same molecule, the “pseudovirus neutralization IC50” value in experiment [7] is 0.0067 µg/mL.

B10: BD56-1265 (protein)
chain 1: QVQLVQSGAEVKKPGSSVKVSCKVSGGTLINYALSWVRQAPGQGLEWMGDIVPILDMTNYAQKFQGRVTISADKSTSTGYMELSSLRSEDTAVYYCATGGRYCSGHICYSSYFKSWGQGTLVTVSS
chain 2: EIVLTQSPGTLSLSPGERATLSCRASQSLSSSHLAWYQQKPGQAPRLLIFGASNRATGIPDRFSGSGSGTDFTLTISRLAPEDFGVYYCQQYGSSPQRTFGQGTKVEIK
Consider B10, for which the “pseudovirus neutralization IC50” value in experiment [1] was 1.18 µg/mL; in experiment [2] it was 0.0743 µg/mL; in experiment [3], 0.256 µg/mL; in experiment [4] it was above 10 µg/mL; in experiment [5], above 10 µg/mL; in experiment [6], above 10 µg/mL. Besides, the “pseudovirus neutralization IC50” value in experiment [7] was found to be 0.00322 µg/mL.

B11: BD56-1272 (protein)
chain 1: QVHLVQPGAEVKKPGASVTVSCKASGYTLSSYYMHWVRQAPGQGLEWMGVINPSGGGRRNAQKFQGRVTMTTDTSTGTFFMELSSLASEDTAVYYCARELIVPAAGYMDVWGKGSTVTVSS
chain 2: SYVLTQPPSVSVAPGKTARITCGGSNIGSKSVHWYQQKPGQAPALVVYDDSDRPSGIPERFSGSNSGNTATLTISRVEAGDEADYYCQVWDGSSDHFYVFGTGTKVTVL
With B11, the “pseudovirus neutralization IC50” value in experiment [1], in experiment [2], in experiment [3], in experiment [4], in experiment [5] and in experiment [6] was above 10 µg/mL each time. For the same molecule, the “pseudovirus neutralization IC50” value in experiment [7] was above 10 µg/mL.

B12: BD56-1257 (protein)
chain 1: QVQLVESGGGVVQPGRSLRLSCAASGFTFSDYSMHWVRQAPGKGLEWVAVISSDGSQKYYADSVQGRLTISRDNSKNTLYLQMNRLRAEDTAVYYCARLLGYYDSSAFYGSDWWGQGTLVTVSS
chain 2: QSALTQPASVSGSPGQSITISCTGSSSDVGGYNYVSWYQVHPGKAPKLMIYDVDNRPSGVSDRFSGSKSGNTASLTVSGLQAEDEADYYCSSYTTSSTFLFGGGTKLTVL
B12: the “pseudovirus neutralization IC50” value in experiment [1] is 0.192 µg/mL; in experiment [2], 0.311 µg/mL; in experiment [3] it was 0.388 µg/mL; in experiment [4], 0.208 µg/mL; in experiment [5] it was above 10 µg/mL; in experiment [6], 2.1 µg/mL. Also, the “pseudovirus neutralization IC50” value in experiment [7] stood at 0.0196 µg/mL.

The record behind these values is the supplement of paper PMC9931576.
